The values that follow come from PMC11952669 (Research Square, 2025).

As usually defined, the pKd is the Kd on a negative log10 scale, so that one unit is a factor of ten. A high value points to a low Kd.

pKd: −log10 of the molar value.

This assay has as its target Biotinylated HsItaly2011 RBD (residues 388–589) (bat MERSr-CoV HsItaly2011 (from Hypsugo savii)). In words: BLI. A general note: Biolayer interferometry detects binding as a change in optical thickness at a sensor tip.

On to “R.nor ACE2 ectodomain (residues 1–741), dimeric (from UniProt Q5EGZ1 18-741) (receptor)”, for which the pKd is 6.92.
